Assay results as given in PMC8989888, “Development of optimized drug-like small molecule inhibitors of the SARS-CoV-2 3CL protease for treatment of COVID-19” (Nature Communications, 2022).
pEC50, pIC50: −log10 of the molar value. Several values for one entry are separate records, joined by “and”; a condition that tells them apart may be missing. Equal values may be shown once. Read-outs that look alike come from different tables or passages of the source.

What was measured:
[1] = biological target: T1, SARS-CoV-2 3CL protease (Severe acute respiratory syndrome coronavirus 2, UniProt P0DTD1); experiment: Mass spectrometry analysis of protein-inhibitor complex; format: binding
[2] = system: SARS-CoV-2; experiment: SARS-CoV-2 viral inhibition in Huh-7ACE2 cells; settings: read-out: SARS-CoV-2 Huh-7ACE2 EC50; Huh-7ACE2, 24 h, MOI 0.05
[3] = biological target: T1, SARS-CoV-2 3CL protease; experiment: SARS-CoV-2 3CL protease inhibition, fluorogenic peptide substrate; format: biochemical
[4] = system: human chymotrypsin; experiment: Chymotrypsin activity assay (Panc-1 cell lysate); settings: 10µM inhibitor; DMSO about 1, no lysate (negative control) 0; three replicates
[5] = read-out: SARS-CoV-2 3CLpro IC50, 20 nM protease

SMILES	binding to 3CL protease by mass spectrometry (in words) [1]	pEC50 [2]	pIC50 [3, 5]	Protease activity in cell lysate normalised to DMSO (Figure S22D) [4]	Normalized SARS-CoV-2 3CL protease activity ([3]; 0.2 µM protease with 50 µM tested compound, replicates, listed as AZVIII 34D)	pIC50 ([3]; 200 nM protease)	Protease activity (normalized) ([3]; 200 nM protease, log10[nM] 1.35912, replicates)	Protease activity (normalized) ([3]; 200 nM protease, log10[nM] 2.79048, replicates)	Protease activity (normalized) ([3]; 200 nM protease, log10[nM] 4.22185, replicates)
CC(C)C[C@H](NC(=O)OCc1ccccc1Cl)C(=O)N[C@H](C=O)C[C@@H]1CCNC1=O	blocked covalent binding of 10 equivalents of compound 4	8.10	8.00	0.9365 and 0.8801 and 0.9265	–	–	–	–	–
CC(C)C[C@H](NC(=O)OCc1cccc(Cl)c1)C(=O)N[C@H](C=O)C[C@@H]1CCNC1=O	blocked covalent binding of 10 equivalents of compound 4	7.59	8.05	0.933 and 0.8892 and 0.9601	–	–	–	–	–
CCOC(=O)C=CC(CC1CCNC1=O)NC(=O)C(CC(C)C)NC(=O)C(NC(=O)OCc1ccccc1)C(C)OC(C)(C)C (stereo not shown) [compound 4]	–	–	–	–	0.01471 and 0.01456 and 0.005221	5.01	0.8103 and 0.7555 and 0.5396	0.5696 and 1.044 and 0.8978	0.1536 and 0.09865 and 0.08845
